# Primary screen of a compound library

Source: ChEMBL document CHEMBL3988442, “University of Dundee, Small-Polar-MMV Screening Library” (2021).

Mtb cholesterol medium: 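Growth of Mycobacterium tuberculosis over 4 days (cholesterol / DPPC medium with tyloxapol); the read-out is not stated. Tested at 500 µM. The record gives no direction; compounds that gave an IC50 in retests scored well above the rest, so higher reads as more growth inhibition. Of about 18,000 compounds tested this way, about 900 (5%) reached 50% or more in at least one test.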
Mtb glucose medium: 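Whole-cell growth test on Mycobacterium tuberculosis, read after 3 days in glucose-containing 7H9 medium; the read-out is not stated. Concentration: 500 µM. Higher reads as more growth inhibition (inferred: compounds with an IC50 in retests scored well above the rest). About 18,000 compounds were tested under these conditions; 7.9% (about 1,400) showed 50% or more at least once.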

Results are given as percent effect.
The controls that fix the scale are not given in the record; negative values are as filed.
This is part of a subset picked to be rich in strong results.
A dash means the value is not listed here; it may have been measured.

SMILES,Mtb cholesterol medium,Mtb glucose medium
CCN1CC(C(=O)N2CCc3ccccc3C2)CC1=O (stereo unspecified),-,12.39
c1ccc(Cn2cnc(C3COCCN3)n2)cc1 (stereo unspecified),-,7.554
CN1CCCN(C(=O)c2cc3c(s2)CCCC3)CC1,-,57.54
CN(Cc1ccc(O)cc1)C(=O)c1cc(Cl)c[nH]1,100,85.06
Cc1nn(C)c(C)c1CC(=O)N1CCCC(C(N)=O)C1 (stereo unspecified),-10.57,-
NC(=O)CC1C(=O)NCCN1CCCc1ccccc1 (stereo unspecified),-,17.25
CSc1nnc(NC(C)(C)C)s1,41.94,26.52
CN(C)C(=O)CSc1nnc(C(F)(F)F)s1,64.57,80.33
CC(NC(=O)CNc1ccccc1F)c1ccco1 (stereo unspecified),64.8,68.94
CCN1C[C@H](NC(=O)c2cccn2C(C)C)[C@@H](OC)C1,10.35,25.6
CCN1CCc2nc(NC(=O)c3ccncc3)sc2C1,-13.79,-15.31
OCC1CCN(C2CCCCC2)C1 (stereo unspecified),-,33.93
O=C(NCCS(=O)(=O)N1CCSCC1)c1ccccc1,0.4997,-3.073
CCNS(=O)(=O)C1CCN(Cc2cccn2C)C1 (stereo unspecified),-,20.93
CSc1ncc(CN)n1C,12.64,-14.28
Cc1cc(CN2CCn3ccnc3C2)no1,-17.46,-
CC(NS(C)(=O)=O)C(=O)NCc1nnc2n1CCCC2 (stereo unspecified),11.67,-
Cc1nn(C)c(N(C)C)c1CNCc1nncn1C,-,8.87
CCN(C(=O)CSc1nncs1)C1CCS(=O)(=O)C1 (stereo unspecified),-,7.672
CCc1nnc(NC(=O)c2ccc(S(=O)(=O)NC)o2)s1,-,6.682
COCC(=O)N1CCC2(CC1)OCCO2,-,50.57
CNC(=O)NC(=O)CSc1ccccn1,48.43,6.619
Cc1ccccc1-c1nnn(CC(O)CC(F)(F)F)n1 (stereo unspecified),6.962,78.77
OC(CN1CCn2ccnc2C1)c1ccc(Cl)cc1 (stereo unspecified),-,65.35
CNC(=O)N(C)C(C)C1CCN(C)CC1 (stereo unspecified),3.505,-
Cn1cccc1C(=O)NC(=O)CSc1ncccn1,3.82,-
NC(=O)NCC(=O)NCC1COc2ccccc2C1 (stereo unspecified),-13.54,-
CC(NCC1CC1)c1nnc2ccccn12 (stereo unspecified),-,9.262
CC(C)Oc1cccc(-c2cnn(CCC(N)=O)c2)c1,73,68.53
CCCOc1cc(CNC(=O)c2csnc2C)ccn1,69.93,67.38
OCc1ccccc1C1CCNCC1,6.419,-
COCC(=O)N1CCCn2ccnc2C1C1CCCC1 (stereo unspecified),-0.9024,-
NC1CCN(Cc2ccc(F)c(F)c2)CC1,29.31,-4.06
CCNc1nnc(SCc2ncccc2C)s1,74.09,70.45
Cc1ccsc1C(=O)N1CCOc2ccncc21,-,25.85
CC(C)CCNC(=O)c1cc2c([nH]c1=O)CCCC2=O,-,-4.265
O=C(Cn1ccnc1)Nc1ccccc1,-13.03,3.502
OC(CN1CCN(c2ccccn2)CC1)C1CC1 (stereo unspecified),-,-8.374
CN(Cc1cccnc1)Cc1cc(C#N)cs1,-,48.28
CC(=O)c1ccc(S(C)(=O)=O)c(N2CCC(C)(C)C2)c1,79.09,83.57
Cc1nsc(C(=O)NCCCn2cccn2)n1,26.17,45.49
O=C(CSCc1ccccc1Cl)N1CCOCC(O)C1 (stereo unspecified),-,33.82
CCc1noc(CN2CCCC(O)C2)n1 (stereo unspecified),-,11.08
O=C(c1c(O)cccc1F)N1CCc2cnccc21,-,29.52
Cc1cccc(CS(=O)(=O)c2nncn2C)c1,-,-5.786
CN(C)C(=O)C1CCCN1C(=O)Cc1ccccc1 (stereo unspecified),-,18.9
CCNC(=O)C(C)NC(=O)N1CCc2ccc(Cl)cc21 (stereo unspecified),-,5.433
CNCc1c(C)cc(C)nc1OC,-,5.855
O=C(CCOCC(F)(F)F)NCCNc1ccccc1,-,41.03
COc1ncc(C)cc1N,-,-125.9
NCCc1ccc(OCC(F)(F)F)nc1,53.71,57.44
O=C(NCC(=O)N1CCCCCC1)c1ccco1,13.22,-
COc1ccc(S(=O)(=O)N2CCC(=O)C(C)C2)cc1C (stereo unspecified),-,25.3
Nc1nccnc1Br,-,1.056
CC(C)(C)OC(=O)N1C[C@@H](N)[C@H](O)C1,-,5.876

6 of the entries, repeated:

| SMILES | Mtb cholesterol medium | Mtb glucose medium |
|---|---|---|
| `OCC1CCN(C2CCCCC2)C1` (stereo unspecified) | - | 33.93 |
| `OC(CN1CCn2ccnc2C1)c1ccc(Cl)cc1` (stereo unspecified) | - | 65.35 |
| `Cc1ccccc1-c1nnn(CC(O)CC(F)(F)F)n1` (stereo unspecified) | 6.962 | 78.77 |
| `CC(C)CCNC(=O)c1cc2c([nH]c1=O)CCCC2=O` | - | -4.265 |
| `CCc1noc(CN2CCCC(O)C2)n1` (stereo unspecified) | - | 11.08 |
| `Cc1cccc(CS(=O)(=O)c2nncn2C)c1` | - | -5.786 |